Results published in PMC12291119 (ACS Central Science, 2025).

Test: general procedure: Fmoc solid-phase peptide synthesis; H-Rink amide Chemmatrix resin pre-loaded with Fmoc-Lys(biotin)-OH; DIC/Oxyma

Substance | cyclisation yield (cyclisation step, on linear precursor) [% yield] | step yield (purification step, of the material that was purified) [%]
H1-IAAIA-cyclic peptide | 37 | 
H1-IAAIA-peptide |  | 2.6
